Results deposited as PubChem BioAssay AID1259414 (Drosophila RNAi Screening Center, 2018)
Aim: 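Genome-wide screen for host control of endosymbiont load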 (primary screen). Cells: Drosophila JW18 cells infected with Wolbachia. Reagent: long dsRNA against Drosophila genes, 0.25 µg dsRNA per well of a 384-well plate. Timing: 5 days. Treatment: cells persistently infected with Wolbachia before knock-down; no added drug. Measured: 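Automated imaging of bacterial rRNA staining divided by host cell count, reported as plate-normalised robust z-score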. Scale: Wolbachia per cell robust z: higher = more Wolbachia per host cell than the plate typical. Call rule: 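Active if absolute robust z reaches 1.5 in two or more of three replicates, leaving out multi- or no-target dsRNAs, genes unexpressed in JW18 and A1 wells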.
The deposit covers about 24,000 reagents; shown is a random part of those with a known target gene and a result. In the full data, about 1,210 (5%) got an active call. 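Inactive calls also include excluded dsRNAs with several or no targets, genes unexpressed in JW18, and well A1, regardless of score.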

CG9483 [DRSC03226]
- Wolbachia per cell robust z, rep 1: 1.35
- Wolbachia per cell robust z, rep 2: -0.0338
- Wolbachia per cell robust z, rep 3: -0.483
- activity call: inactive

CG9483 [DRSC29929]
- Wolbachia per cell robust z, rep 1: -3.55
- Wolbachia per cell robust z, rep 2: -0.721
- Wolbachia per cell robust z, rep 3: 0.526
- activity call: inactive

CG13995 [DRSC00907]
- Wolbachia per cell robust z, rep 1: 0.888
- Wolbachia per cell robust z, rep 2: 0.539
- Wolbachia per cell robust z, rep 3: 0.349
- activity call: inactive

CG13995 [DRSC02327]
- Wolbachia per cell robust z, rep 1: -0.468
- Wolbachia per cell robust z, rep 2: -0.831
- Wolbachia per cell robust z, rep 3: -0.0676
- activity call: inactive

CG13995 [DRSC22767]
- Wolbachia per cell robust z, rep 1: 0.707
- Wolbachia per cell robust z, rep 2: -2.33
- Wolbachia per cell robust z, rep 3: -0.179
- activity call: inactive

CG13995 [DRSC28023]
- Wolbachia per cell robust z, rep 1: 0.166
- Wolbachia per cell robust z, rep 2: -0.297
- Wolbachia per cell robust z, rep 3: -1.28
- activity call: inactive

sona [DRSC04089]
- Wolbachia per cell robust z, rep 1: 0.188
- Wolbachia per cell robust z, rep 2: 0.0974
- Wolbachia per cell robust z, rep 3: 0.539
- activity call: inactive

sona [DRSC04574]
- Wolbachia per cell robust z, rep 1: 0.505
- Wolbachia per cell robust z, rep 2: -1.69
- Wolbachia per cell robust z, rep 3: 0.777
- activity call: inactive

sona [DRSC04575]
- Wolbachia per cell robust z, rep 1: -0.867
- Wolbachia per cell robust z, rep 2: -5.19
- Wolbachia per cell robust z, rep 3: -1.45
- activity call: inactive

Records above whose target name begins with C or c:
CG9483 [DRSC03226]
- Wolbachia per cell robust z, rep 1: 1.35
- Wolbachia per cell robust z, rep 2: -0.0338
- Wolbachia per cell robust z, rep 3: -0.483
- activity call: inactive

CG9483 [DRSC29929]
- Wolbachia per cell robust z, rep 1: -3.55
- Wolbachia per cell robust z, rep 2: -0.721
- Wolbachia per cell robust z, rep 3: 0.526
- activity call: inactive

CG13995 [DRSC00907]
- Wolbachia per cell robust z, rep 1: 0.888
- Wolbachia per cell robust z, rep 2: 0.539
- Wolbachia per cell robust z, rep 3: 0.349
- activity call: inactive

CG13995 [DRSC02327]
- Wolbachia per cell robust z, rep 1: -0.468
- Wolbachia per cell robust z, rep 2: -0.831
- Wolbachia per cell robust z, rep 3: -0.0676
- activity call: inactive

CG13995 [DRSC22767]
- Wolbachia per cell robust z, rep 1: 0.707
- Wolbachia per cell robust z, rep 2: -2.33
- Wolbachia per cell robust z, rep 3: -0.179
- activity call: inactive

CG13995 [DRSC28023]
- Wolbachia per cell robust z, rep 1: 0.166
- Wolbachia per cell robust z, rep 2: -0.297
- Wolbachia per cell robust z, rep 3: -1.28
- activity call: inactive

Continued.
CG13577 [DRSC04213]
- Wolbachia per cell robust z, rep 1: -0.0895
- Wolbachia per cell robust z, rep 2: -7.12
- Wolbachia per cell robust z, rep 3: -0.055
- activity call: inactive

Grl62a [DRSC40580]
- Wolbachia per cell robust z, rep 1: 0.0208
- Wolbachia per cell robust z, rep 2: 0.196
- Wolbachia per cell robust z, rep 3: -0.00303
- activity call: inactive

dac [DRSC03518]
- Wolbachia per cell robust z, rep 1: -7.48
- Wolbachia per cell robust z, rep 2: -1.18
- Wolbachia per cell robust z, rep 3: -8.61
- activity call: active

CG15210 [DRSC19656]
- Wolbachia per cell robust z, rep 1: 0.719
- Wolbachia per cell robust z, rep 2: -1.88
- Wolbachia per cell robust z, rep 3: -0.52
- activity call: inactive

CG15210 [DRSC27768]
- Wolbachia per cell robust z, rep 1: 0.668
- Wolbachia per cell robust z, rep 2: 0.115
- Wolbachia per cell robust z, rep 3: -0.784
- activity call: inactive

CG30395 [DRSC03896]
- Wolbachia per cell robust z, rep 1: -4.8
- Wolbachia per cell robust z, rep 2: -0.301
- Wolbachia per cell robust z, rep 3: -0.0786
- activity call: inactive

Non1 [DRSC05954]
- Wolbachia per cell robust z, rep 1: 0.993
- Wolbachia per cell robust z, rep 2: 0.114
- Wolbachia per cell robust z, rep 3: 1.96
- activity call: inactive
